Reference: PMC10948575, “Characterization of the ADP-β-D-manno-heptose biosynthetic enzymes from two pathogenic Vibrio strains” (Applied Microbiology and Biotechnology, 2024)

Protein sequences, listed by entry. Tags and fused reporters are not part of them.
UniProt Q87MG7, whole entry: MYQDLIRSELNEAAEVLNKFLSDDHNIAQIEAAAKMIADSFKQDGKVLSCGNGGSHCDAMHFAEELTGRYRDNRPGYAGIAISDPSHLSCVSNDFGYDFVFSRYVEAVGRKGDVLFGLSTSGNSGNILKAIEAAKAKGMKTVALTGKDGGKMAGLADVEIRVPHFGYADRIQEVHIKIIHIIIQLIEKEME

Assays:
[1] = target: T1, GmhAVP (Vibrio parahaemolyticus, UniProt Q87MG7); assay: HPLC of coupled one-pot reaction with GmhB and HldE; assay type: biochemical; conditions: 0.2 mM S7P, 2 mM ATP, 2 mM MgCl2, 2 mM KCl, pH 8.0, 30 °C, 2 h; also with E. coli GmhB + HldE
T1 construct: gene gmhA

[2] = target: T2, GmhBVP (Vibrio parahaemolyticus, UniProt Q87RR9); assay: HPLC of coupled one-pot reaction with GmhA and HldE; assay type: biochemical; conditions: HBP formed in situ from 0.2 mM S7P and 2 mM ATP, 2 mM MgCl2, pH 8.0, 30 °C, 2 h
T2 construct: gene VP0708

Compound | HPLC of coupled one-pot reaction with GmhB and HldE [1] | HPLC of coupled one-pot reaction with GmhA and HldE [2]
O=P(O)(O)OC[C@@H](O)[C@H]1OC(O)(CO)[C@@H](O)[C@@H]1O (some centres unmarked) [S7P] | these results confirmed that GmhAVC and GmhAVP are S7P isomerases | –
O=P(O)(O)OC[C@@H](O)[C@H]1O[C@@H](OP(=O)(O)O)[C@@H](O)[C@@H](O)[C@@H]1O [HBP] | – | GmhBVC and GmhBVP are HBP phosphatases
